Measured values from several laboratories, pooled; numbers as filed in NIAID ChemDB.

All rows: toxicity to cultured cells; cell line: TZM-bl; measure: CC50

CCn is the concentration with n% toxicity to the cells. Conditions beyond the fields shown may differ between rows. An empty or dashed field is not shown.

structure	read by	value
Clc1cc(/C=C/c2ccc(-c3cncnc3)cc2)nc2ccccc12	MTT	73.59 µM
COc1cccc2ccc(/C=C/C(=O)Nc3ccc(Cl)cc3)nc12	MTT	128 µM
Clc1cc(/C=C/c2ccccc2)nc2ccccc12	MTT	53.43 µM
COc1cc(-c2ccc(C(=O)NC(CCN)c3nc(CO)cs3)[nH]2)ccn1	MTS / absorbance	>133 µM
COc1ccccc1-c1nnc(-c2ccc3cccc(OC)c3n2)o1	MTT	413 µM
Clc1ccc2nc(/C=C/c3ccc4ccccc4c3)cc(Cl)c2c1	MTT	22.27 µM
COc1ccc(-c2nnc(-c3ccc4cccc(OC)c4n3)o2)cc1	MTT	413 µM
Cc1cc(C)c(Nc2nc(Cl)nc(Nc3ccc(C#N)nc3)n2)c(C)c1	MTT	50 µg/mL
COc1ccc(N(C)C(=O)C(Cc2cc(F)cc(F)c2)NC(=O)c2cn(C3CC(n4cc(C)c(=O)[nH]c4=O)OC3CO)nn2)cc1	MTT	>15.63 µM
Cc1cc(N2C(=O)CSC2c2c(Cl)cncc2Cl)nc(C)c1Br	MTT	15.6 µg/mL
C/C(=N/O)c1ccc(Nc2nc(-c3ccncc3)nc3ccccc23)cc1	MTT	7 µM
COc1ccc(/C=C/c2cc(Cl)c3cc(Cl)ccc3n2)c(OC)c1	MTT	24.98 µM
COc1ccc(C2CC(=O)c3c(O)cc(O[C@@H]4O[C@H](CO[C@@H]5O[C@@H](C)[C@H](O)[C@@H](O)[C@H]5O)[C@@H](O)[C@H](O)[C@H]4O)cc3O2)cc1O	absorbance	>100 µg/mL
Clc1ccc(N=Cc2cc3ccccc3nc2Nc2ccc(Cl)cc2)cc1	MTT	79.15 µM
O=C(O[C@@H]1OC2COC(=O)c3cc(O)c(O)c(O)c3-c3c(cc(O)c(O)c3O)C(=O)O[C@@H](C1O)[C@@H]2O)c1cc(O)c(O)c(O)c1	absorbance	>100 µg/mL
NC[C@H](NC(=O)c1ccc(-c2ccc(Cl)cn2)[nH]1)c1cnc(CO)s1	MTS	>106 µM
COc1cccc2ccc(-c3nnc(-c4ccc(F)cc4)o3)nc12	MTT	236 µM
NCCC(NC(=O)c1ccc(-c2ccc(C(F)(F)F)nn2)[nH]1)c1nc(CO)cs1	MTS / absorbance	>73 µM
Cc1nc(N2C(=O)CSC2c2c(Br)cncc2Br)ccc1Br	MTT	26.9 µg/mL
COc1ccc(-c2nnc(-c3ccc4cccc(OC)c4n3)o2)cc1OC	MTT	134 µM
Cc1cccc(N2C(=O)CSC2c2c(Cl)cncc2Cl)n1	MTT	45 µg/mL
CC(CCN)(NC(=O)c1ccc(-c2ccc(C(F)(F)F)cn2)[nH]1)c1nc(CO)cs1	MTS / absorbance	>70.5 µM
O=C(OC[C@H]1O[C@@H](OC(=O)c2cc(O)c(O)c(O)c2)[C@H](O)[C@@H](OC(=O)c2cc(O)c(O)c(O)c2)[C@@H]1O)c1cc(O)c(O)c(O)c1	absorbance	>100 µg/mL
COc1cc(C[C@@H]2C(=O)N[C@@H](C(C)C)C(=O)O[C@H](c3ccccc3)[C@H](C)/C=C/C=C(\C)C(OC)CCC/C=C(\C)C(=O)C(C)C(=O)N2C)ccc1O		0.14 µM
COc1ccc(N(C)C(=O)[C@H](Cc2cc(F)cc(F)c2)NC(=O)c2cccc(-c3cn(C4CC(n5cc(C)c(=O)[nH]c5=O)OC4CO)nn3)c2)cc1	MTT	>27.94 µM
CCCCCCCCCCCCCCCCCC1O[C@@H](CO)[C@H](O)[C@H](O)[C@@H]1O	resazurin	>400 µM
Cc1cccc(N2C(=O)CSC2c2c(Br)cncc2Br)n1	MTT	26.7 µg/mL
NCCC(NC(=O)c1ccc(-c2ccc(C(F)F)cn2)[nH]1)c1nc(CO)cs1	MTS / absorbance	>102 µM
CC(C)(C)c1cc(N2C(=O)CSC2c2c(F)cccc2F)no1	MTT	45.9 µg/mL
NCCC(NC(=O)c1ccc(-c2ncc(Cl)cn2)[nH]1)c1nc(CO)cs1	MTS / absorbance	>66 µM
CC(C)C[C@H](NC(=O)c1ccc(NC(=O)[C@H](Cc2c[nH]c3ccccc23)NC(=O)CCC(=O)NCCCCCCCCCCOCCNC(=O)CCC(=O)O)c(OCCc2c[nH]c3ccccc23)c1)C(=O)O	absorbance	>50 µM
CCOC(=O)c1cccc(Nc2nc(-c3cccnc3)nc3ccccc23)c1	MTT	15 µM
Cc1cc(N2C(=O)CSC2c2c(F)cccc2F)no1	MTT	62.7 µg/mL
NC[C@H](NC(=O)c1ccc(-c2ccc(Cl)cn2)[nH]1)c1ncc(CO)s1	MTS	>132 µM
CN[C@@H]1[C@@H](O)[C@@H](O[C@@H]2[C@@H](O)[C@H](O[C@H]3OC(CN)=CC[C@H]3N)[C@@H](N)C[C@H]2N)OC[C@]1(C)O		157.1 µM
COc1cccc2ccc(-c3nnc(-c4cccnc4)o3)nc12	MTT	50.93 µM
NC[C@H](NC(=O)c1ccc(-c2ccc(C(F)(F)F)cn2)[nH]1)c1ncc(CO)s1	MTS	>73 µM

For reference, 5 entries again:

structure	read by	value
COc1ccc(-c2nnc(-c3ccc4cccc(OC)c4n3)o2)cc1	MTT	413 µM
COc1ccc(/C=C/c2cc(Cl)c3cc(Cl)ccc3n2)c(OC)c1	MTT	24.98 µM
COc1ccc(N(C)C(=O)[C@H](Cc2cc(F)cc(F)c2)NC(=O)c2cccc(-c3cn(C4CC(n5cc(C)c(=O)[nH]c5=O)OC4CO)nn3)c2)cc1	MTT	>27.94 µM
COc1ccc(C2CC(=O)c3c(O)cc(O[C@@H]4O[C@H](CO[C@@H]5O[C@@H](C)[C@H](O)[C@@H](O)[C@H]5O)[C@@H](O)[C@H](O)[C@H]4O)cc3O2)cc1O	absorbance	>100 µg/mL
COc1ccc(-c2nnc(-c3ccc4cccc(OC)c4n3)o2)cc1OC	MTT	134 µM